Laboratory results as given in ChEMBL document CHEMBL1133067, “Second generation mimics of ganglioside GM1 as artificial receptors for cholera toxin: replacement of the sialic acid moiety” (Bioorg Med Chem Lett, 2000).

Experiment: Affinity towards Cholera toxin B5 pentamer
Parameters: species or system Vibrio cholerae

## LACTOSE, ANHYDROUS
  Kd: 81 µM
